Compound potency records, mixed from different reports. Data source: NIAID ChemDB in PubChem.

Common to all: whole-cell or culture tests; agent: HIV-2; measure: EC50

ECn is the concentration giving n% inhibition of infection, replication or growth. Conditions beyond the fields shown may differ between rows. Blank or dashed fields: not listed here.

compound,strain,method,cells,result
Cc1cn([C@@H]2O[C@H](C3CO[Si](C(C)C)(C(C)C)O[Si](C(C)C)(C(C)C)O3)C3(OS(=O)(=O)C=C3N)[C@H]2O)c(=O)[nH]c1=O,ROD,cytopathic effect,MT-4,>6.3 µM
O=C1c2ccccc2C(=O)N1[C@H]1CC2CC3CC(C2)C1C3,ROD,syncytia,CEM,>4 µg/mL
Cc1ccc[n+]([O-])c1S(=O)(=O)C(C)c1ccccc1Cl,ROD,syncytia,CEM,>20 µg/mL
Cc1cc(C)c(Oc2ncc(N)c(Nc3ccc(C#N)cc3)n2)c(C)c1,ROD,MTT,MT-4,>10 µM
Cc1ncn(Nc2cccc(Cl)c2)c1-c1cccc(C#N)c1,ROD,cytopathic effect / MTT,MT-4,>10.9 µg/mL
CCc1nc([N+](=O)[O-])c(N2CCN(C(=O)CCl)CC2)n1Cc1ccccc1,ROD,syncytia,MT-4,>0.5 µg/mL
Nc1nc(=O)n([C@H]2CC[C@@H](CO)O2)cc1Cl,LAV-2,cytopathic effect / trypan blue,MT-4,>500 µM
Cc1ccc(CS(=O)(=O)c2c(C)ccc[n+]2[O-])c(C)c1,ROD,syncytia,CEM,≥20 µg/mL
COC(=O)[C@H](C)NP(=O)(OC[C@@H]1C=C[C@H](n2cc(C)c(=O)[nH]c2=O)O1)Oc1ccc(F)cc1,ROD,syncytia,CEM + CEM TK-,0.09 µM
O=C(O)c1cccc(Cc2cccc(C(=O)O)c2O)c1O,ROD,cytopathic effect / MTT,MT-4,>40 µg/mL
CCc1nc([N+](=O)[O-])c(N2CCN(C(=O)c3ccc(OC)cc3)CC2)n1Cc1ccccc1,ROD,syncytia,MT-4,>71.8 µg/mL
O=C1NCC2(C(=O)C3C=CC=CC13)C1CC3CC(C1)CC2C3,ROD,syncytia,CEM,>20 µg/mL
Cc1ccc(C)c(CS(=O)(=O)c2cccc[n+]2[O-])c1,ROD,cytopathic effect,CEM,10 µg/mL
Cc1ccccc1C(Sc1cccc[n+]1[O-])C(N)=O,ROD,syncytia,CEM,>100 µg/mL
Cc1c(Cc2ccccc2)nc(OC(C)C)[nH]c1=O,ROD,cytopathic effect / MTT,MT-4,>200 µM
CN(C)c1ccnc(SCc2ccc(Cl)cc2)c1C#N,ROD,syncytia,CEM,>20 µg/mL
COc1ccc2[nH]c(=O)c(CN(Cc3cccnc3)S(=O)(=O)c3cccc4nsnc34)cc2c1,ROD,p24 / ELISA,MOLT-4,0.1105 µM
Cc1ccc[n+]([O-])c1SC(C)c1ccccc1,ROD,syncytia,CEM,>20 µg/mL
CCc1c(Sc2cc(C)cc(C)c2)n(CCCCC(=O)NCCCCCCCCCCNC(=O)CCc2cn([C@H]3C[C@H](N=[N+]=[N-])[C@@H](CO)O3)c(=O)[nH]c2=O)c(=O)[nH]c1=O,D194,,PBMC,>10 µM
CCC(C)Oc1nc(Cc2ccccc2)cc(=O)[nH]1,ROD,cytopathic effect / MTT,MT-4,>200 µM
Cc1cn([C@@H]2O[C@H](C(CO[Si](C)(C)C(C)(C)C)O[Si](C)(C)C(C)(C)C)C3(OS(=O)(=O)C=C3N)[C@H]2O[Si](C)(C)C(C)(C)C)c(=O)[nH]c1=O,ROD,cytopathic effect,MT-4,>136 µM
O=C(O)C1=CC(=C(c2ccc(O)c(C(=O)O)c2)c2ccc(O)c(C(=O)O)c2)C=C(Cc2ccc(O)c(C(=O)O)c2)C1=O,ROD,syncytia,MOLT-4/HUT-78,1 µg/mL
Cc1ccc[n+]([O-])c1S(=O)(=O)Cc1cccc([N+](=O)[O-])c1C,ROD,syncytia,CEM,>4 µg/mL
COc1ccc(NC(=O)Nc2nc(/C=C/c3cc(OC)c(OC)c(OC)c3)nc3ccccc23)cc1,ROD,MTT,MT-4,>1.88 µg/mL
CC(=O)Nc1cnc(Oc2c(C)cc(C#N)cc2C)nc1Nc1ccc(C#N)cc1,ROD,MTT,MT-4,>313 µM
CCc1nc([N+](=O)[O-])c(N2CCN(C(=O)c3ccc(Cl)cc3)CC2)n1Cc1ccccc1,ROD,syncytia,MT-4,>22.5 µg/mL
O=C(O)c1cc(C(c2ccc(O)c(C(=O)O)c2)c2ccc(O)c(C(=O)O)c2)ccc1O,ROD,syncytia,MOLT-4/HUT-78,10 µg/mL
Cc1ccc(C)c(CSc2c(Cl)ccc[n+]2[O-])c1,ROD,cytopathic effect,CEM,>20 µg/mL
NS(=O)(=O)c1ccc(NC(=O)c2ccccc2SSc2ccccc2C(=O)Nc2ccc(S(N)(=O)=O)cc2)cc1,ROD,cytopathic effect / XTT,CEM + CEM-SS,1.6 µM
COC(=O)CC[C@@H]1C[C@H]2CCC[C@](NC(=O)c3ccccc3C(=O)N[C@@]34CCC[C@@H](C[C@H](CCC(=O)OC)C3)C4)(C2)C1,ROD,syncytia,CEM,>20 µg/mL
CCCCCCCC(Sc1cccc[n+]1[O-])c1cc(C)c(C)c(C)c1,ROD,syncytia,CEM,>20 µg/mL
Cc1cn([C@@H]2O[C@H](CO[Si](C)(C)C(C)(C)C)C3(OS(=O)(=O)C=C3N)[C@H]2O[Si](C)(C)C(C)(C)C)c(=O)n(CCCCCCCCn2c(=O)c(C)cn([C@H]3C[C@H](N=[N+]=[N-])[C@@H](CO)O3)c2=O)c1=O,ROD,syncytia,CEM + CEM/0,>100 µM
O=C1c2ccccc2C(=O)N1CC1OC1CCl,,syncytia,CEM,>100 µM
COc1cc(/C=C/c2nc(NC(=O)Nc3cccc(Cl)c3)c3ccccc3n2)cc(OC)c1OC,ROD,MTT,MT-4,>2.08 µg/mL
CC1=CC=CN(C)C1SCc1cc(C)ccc1C,ROD,syncytia,CEM + CEM-SS,>4 µg/mL
COc1cc(/C=C/c2nc(NC(=O)Nc3ccccc3Cl)c3ccccc3n2)cc(OC)c1OC,ROD,MTT,MT-4,>1.69 µg/mL
NC/C=C/Cn1cc(C(F)(F)F)c(=O)[nH]c1=O,,syncytia,CEM,>50 µM
CCCCCCNP(=O)(OC[C@H]1O[C@@H](n2cc(C)c(=O)[nH]c2=O)C[C@@H]1N=[N+]=[N-])Oc1ccccc1,ROD,,CEM + CEM/O,>89 µM
CC(=O)NS(=O)(=O)c1c(C)cc(C)c(-c2c3nc(c(-c4c(C)cc(C)c(S(=O)(=O)NC(C)=O)c4C)c4ccc([nH]4)c(-c4c(C)cc(C)c(S(=O)(=O)NC(C)=O)c4C)c4nc(c(-c5c(C)cc(C)c(S(=O)(=O)NC(C)=O)c5C)c5ccc2[nH]5)C=C4)C=C3)c1C,ROD,cytopathic effect / MTT,MT-4,≥75 µg/mL
O=C1c2ccccc2C(=O)N1C/C=C\Cn1cc(F)c(=O)[nH]c1=O,,syncytia,CEM,>100 µM
Cc1cc(CS(=O)(=O)c2cccc[n+]2[O-])c(C)cc1CS(O)(O)c1ccc[n+]([O-])c1,ROD,syncytia,CEM + CEM-SS,≥20 µg/mL
COc1cc(/C=C/c2nc(NC(=S)Nc3cccc(Cl)c3)c3ccccc3n2)cc(OC)c1OC,ROD,MTT,MT-4,>3.25 µg/mL
COc1ccc(/C=C(\C#N)Sc2ccccc2O)cc1,ROD,syncytia,CEM + CEM-SS,>20 µg/mL
Cc1ccc(C)c(CS(=O)c2cccc[n+]2[O-])c1,ROD,syncytia,CEM,≥20 µg/mL
CCOC(=O)[C@H](C)NP(=O)(OC[C@@H]1C=CC(n2ccc(=O)[nH]c2=O)O1)Oc1cccc2ccccc12,ROD,syncytia,CEM,>50 µM
CCc1nc([N+](=O)[O-])c(N2CCN(C(=O)OCn3c4ccccc4c4ccccc43)CC2)n1Cc1ccccc1,ROD,syncytia,MT-4,>9.24 µg/mL
O=c1cc(Cc2ccccc2)nc(OC2CCCC2)[nH]1,ROD,cytopathic effect / MTT,MT-4,>200 µM
CCc1nc([N+](=O)[O-])c(N2CCN(C(=O)c3cccs3)CC2)n1Cc1ccccc1,ROD,syncytia,MT-4,>54.8 µg/mL
CC(=O)Nc1cnc(Oc2c(Cl)cc(Cl)cc2Cl)nc1Nc1ccc(C#N)cc1,ROD,MTT,MT-4,>33 µM
O=c1[nH]c(=O)n([C@H]2C[C@H](F)[C@@H](CO)O2)cc1Cl,ROD,,CEM + CEM/O,2.5 µM
COc1cc(/C=C/c2nc(NC(=O)Nc3cccc(C)c3)c3ccccc3n2)cc(OC)c1OC,ROD,MTT,MT-4,>0.96 µg/mL
CN[C@@H]1[C@H](O[C@@H]2OC[C@@H](O)[C@H](O)[C@H]2O)[C@@H](O)[C@H](O[C@H]2c3cc(C)c(C(=O)N[C@H](C)C(=O)O)c(O)c3-c3c(cc4c(c3O)C(=O)c3cc(OC)cc(O)c3C4=O)[C@@H]2O)O[C@@H]1C,ROD,p24 / ELISA,CEM,1.8 µM
Cc1ccc(C)c(CS(=O)c2ccc(Cl)c[n+]2[O-])c1,EHO,cytopathic effect,CEM,2.4 µg/mL
O=c1c2ccccc2nc2sc(Nc3ccccc3)nn12,ROD,cytopathic effect / MTT,MT-4,42.9 µg/mL
CCc1ccc(NC(=O)C2=C(C)NC(=O)C3C(N)=NN=C23)cc1,ROD,MTT,MT-4,98 µg/mL
O=C1c2ccccc2C(=O)N1CC1C2CC3CC(C2)CC1C3,ROD,syncytia,CEM,>4 µg/mL
COC(=O)[C@H](C)NP(=O)(OC[C@@H]1C=CC(n2ccc(=O)[nH]c2=O)O1)Oc1cccc2ccccc12,ROD,syncytia,CEM,>10 µM
O=S(=O)(O)c1cc(Cl)cc(Cc2cc(Cl)cc(S(=O)(=O)O)c2O)c1O,ROD,cytopathic effect / MTT,MT-4,>100 µg/mL
Nc1ccn([C@H]2CC[C@@H](CO)O2)c(=O)n1,LAV-2,cytopathic effect / trypan blue,MT-4,0.33 µM
Cc1c(Cc2ccccc2)nc(OC2CCCCC2)[nH]c1=O,ROD,cytopathic effect / MTT,MT-4,>200 µM
Cc1ccc(C)c(C(C)S(=O)c2cccc[n+]2[O-])c1,ROD,syncytia,CEM,>0.8 µg/mL
CC(C)OC(=O)[C@H](C)NP(=O)(OC[C@@H]1C=CC(n2ccc(=O)[nH]c2=O)O1)Oc1ccccc1,ROD,syncytia,CEM,>250 µM
O=C(O)C(O[C@@H]1C=C[C@H](n2cc(F)c(=O)[nH]c2=O)C1)P(=O)(O)O,ROD,syncytia,CEM,>250 µM
CC(C)(C)C(=O)SCCOP(=O)(OCCSC(=O)C(C)(C)C)OC[C@H]1O[C@@H](n2cc(Cl)c(=O)[nH]c2=O)C[C@@H]1F,ROD,,CEM + CEM/O,5 µM
Cc1ccc(C)c(C(C)S(=O)(=O)c2c(C)ccc[n+]2[O-])c1,EHO,cytopathic effect,CEM,>20 µg/mL
COc1cc(/C=C/c2nc(NC(=S)Nc3ccc(C)cc3)c3ccccc3n2)cc(OC)c1OC,ROD,MTT,MT-4,>1.7 µg/mL
Cc1ccc(C)c(CS(=O)(=O)c2ncccc2O)c1,ROD,syncytia,CEM,100 µg/mL
CCc1nc([N+](=O)[O-])c(N2CCN(C(=O)c3ccc(F)cc3)CC2)n1Cc1ccccc1,ROD,syncytia,MT-4,>63.2 µg/mL
O=C1c2ccccc2C(=O)N1CC1OC1CBr,,syncytia,CEM,>20 µM
COc1ccccc1NC(=O)C1=C(C)NC(=O)C2C(N)=NN=C12,ROD,MTT,MT-4,100 µg/mL
C=CCNc1nn2c(=O)c3ccccc3nc2s1,ROD,cytopathic effect / MTT,MT-4,97.1 µg/mL
COc1ccc[n+]([O-])c1SCc1cc(C)ccc1C,ROD,syncytia,CEM,>20 µg/mL
Cc1cn([C@H]2C=C[C@@H](OC(C(=O)O)P(=O)(O)O)C2)c(=O)[nH]c1=O,ROD,syncytia,CEM,>250 µM
Cc1c(Cl)ccc(C(C)S(=O)c2cccc[n+]2[O-])c1Cl,ROD,syncytia,CEM,>0.8 µg/mL
C=C1CN(S(=O)(=O)c2ccc(C)cc2)CCCN(Cc2ccccc2)CCCN(S(=O)(=O)c2ccc(C)cc2)C1,EHO,cytopathic effect,MT-4,0.2 µM
COC(=O)C(c1cccc(Oc2ccccc2)c1)S(=O)(=O)c1cccc[n+]1[O-],ROD,syncytia,CEM,>4 µg/mL
CC(C)(C)C(=O)SCCOP(=O)(OCCSC(=O)C(C)(C)C)OC[C@@H]1O[C@H](n2cc(Cl)c(N)nc2=O)C[C@H]1F,ROD,,CEM + CEM/O,>50 µM
Cc1ccccc1CS(=O)c1cccc[n+]1[O-],ROD,syncytia,CEM,6 µg/mL
O=C1c2ccccc2C(=O)N1C/C=C/Cn1cc(F)c(=O)[nH]c1=O,,syncytia,CEM,>100 µM
O=S(=O)(Cc1ccccc1)c1ncccc1O,ROD,syncytia,CEM,>100 µg/mL
CC1=C(C(=O)Nc2cccc([N+](=O)[O-])c2)C2=NN=C(N)C2C(=O)N1,ROD,MTT,MT-4,101 µg/mL
CC(C)c1ccc(C(C)C)c(CS(=O)(=O)c2cccc[n+]2[O-])c1,ROD,syncytia,CEM,≥4 µg/mL
Cc1cn([C@H]2C=C[C@@H](CO)O2)c(=O)[nH]c1=O,ROD,syncytia,CEM,0.77 µM
Cc1ccc(C)c(C(C)(Cl)S(=O)(=O)c2cccc[n+]2[O-])c1,ROD,syncytia,CEM,>4 µg/mL
COc1cc(/C=C/c2nc(NC(=S)Nc3cccc(C)c3)c3ccccc3n2)cc(OC)c1OC,ROD,MTT,MT-4,>5.46 µg/mL